Compound potency records, mixed from different reports. Data source: NIAID ChemDB in PubChem.

All rows: tests in culture; organism: HIV-1; cells: C8166; measure: EC50

Blank or dashed fields: not listed here.

SMILES,strain or isolate,mutations,read by,value
CCN1c2ncc(CCOc3ccc(C(=O)O)c4c3CCN(S(=O)(=O)N(C)C)C4)cc2C(=O)N(C)c2cccnc21,-,RT-K103N Y181C,p24,<0.1 µM
Cc1cn([C@H]2C[C@H](N=[N+]=[N-])[C@@H](COP(=O)(N[C@@H](C)C(=O)OCc3ccccc3)Oc3ccccc3)O2)c(=O)[nH]c1=O,RF,-,ELISA,0.3 µM
CCCC(C(=O)O)c1c(C)nc2ccc(Cl)cc2c1-c1ccc(Cl)c(C)c1,-,-,luciferase / reporter gene,<20 µM
CC(=O)OC[C@H]1O[C@@H](n2ccc(-n3cncn3)nc2=O)C[C@@H]1OC(C)=O,IIIB Laboratory clade B,-,syncytia,400 µM
COc1ccc(C(=O)CSc2nc(Cc3ccccc3)c(C(C)C)c(=O)[nH]2)cc1,IIIB,-,syncytia,0.144 µM
CCN1c2ncc(CCOc3ccc(CC(C)C(=O)O)c4ccccc34)cc2C(=O)N(C)c2ccc(C)nc21,-,RT-K103N Y181C,p24,<0.1 µM
CCN1c2ncc(CCOc3ccc(-c4ccc(C(=O)O)cc4)cc3)cc2C(=O)N(C)c2cccnc21,-,RT-K103N Y181C,p24,>0.05 µM
C=C1CC[C@H]2[C@@](C)(CC/C(=N\OC(=O)c3ccc(Cl)cc3)[C@@]2(C)CO)[C@@H]1/C=C/C1=CCOC1=O,-,-,cytopathic effect,21.96 µM
Cc1cc(C)cc(Sc2c(C(=O)NCCO)[nH]c3ccc(Cl)cc23)c1,IIIB,-,cytopathic effect / MTT,0.015 µM
O=[N+]([O-])c1ccc[n+]([O-])c1SCc1ccccc1,IIIB,-,syncytia,2.8 µg/mL
C=C1CC[C@@H]2[C@](C)(CO)[C@H](O)CC[C@@]2(C)[C@@H]1C/C=C1/C(=O)OC[C@H]1O,-,-,cytopathic effect,2.322 µM
CCC[C@H](C(=O)O)c1c(-c2ccc(Cl)cc2)c2cc(Cl)ccc2n(CCNC(=O)OC(C)(C)C)c1=O,-,-,luciferase / reporter gene,<20 µM
COc1cc2c(c(OC)c1O)-c1c(cc(O)c(OC)c1OC)C[C@@H](C)[C@@H](C)C2,-,-,MTT,1.8 µg/mL
CCCC(C(=O)O)c1c(C)nc2ccc(Cl)cc2c1-c1ccc(C)cc1,-,-,luciferase / reporter gene,<20 µM
Cc1ccc(C)c(CS(=O)(=O)c2cccc[n+]2[O-])c1,IIIB,-,syncytia,6.1 µg/mL
Nc1nc(NC2CC2)c2ncn([C@H]3C=C[C@@H](CO)C3)c2n1,RT-K65R L74V M184V,-,cytopathic effect / XTT,11 µM
C=C1CC[C@@H]2[C@](C)(CO)[C@H](O)CC[C@@]2(C)[C@@H]1CC(OC(C)=O)C1CCOC1=O,-,-,cytopathic effect,1.62 µM
O=C(COc1ccc(F)cc1C(=O)c1ccccc1)Nc1ccccc1,RF,-,syncytia,0.0401 µM
CCN1c2ncc(CCOc3ccc(CCC(=O)O)c4ccccc34)cc2C(=O)Nc2c(C)cc(Cl)nc21,WT,-,p24,<0.1 µM
COC(=O)[C@H](C)NP(=O)(OC[C@H]1O[C@@H](n2cc(C)c(=O)[nH]c2=O)C[C@@H]1N=[N+]=[N-])OCC(Cl)(Cl)Cl,RF,-,ELISA,0.1 µM
Cc1ccc(Sc2c(C(=O)NCCO)[nH]c3ccc(Cl)cc23)cc1,IIIB,-,cytopathic effect / MTT,0.04 µM
Cc1ccc(C)c(C(Cl)S(=O)(=O)c2cc(C)cc[n+]2[O-])c1,IIIB,-,syncytia,0.4 µg/mL
C/C(=N\NC(=O)c1ccccc1)c1cn(S(=O)(=O)c2ccc(Cl)cc2)c2ccc(C#N)cc12,IIIB,-,syncytia / visual reading,11.72 µg/mL
CCCC(C(=O)O)c1c(C)nc2ccc(Cl)cc2c1-c1ccc(C)c(Cl)c1,-,-,luciferase / reporter gene,<20 µM
CCN1c2ncc(CCOc3ccc(C(=O)Nc4cccn(CC(=O)O)c4=O)cc3C)cc2C(=O)N(C)c2cccnc21,IIIB,-,p24,>0.05 µM
CCN1c2ncc(CCOc3ccc(CC(=O)O)c4ccccc34)cc2C(=O)N(C)c2ccc(Cl)nc21,WT,-,p24,<0.1 µM
Cc1ccccc1Sc1c(C(=O)NCCO)[nH]c2ccc(Cl)cc12,IIIB,-,cytopathic effect / MTT,0.08 µM
CCN1c2ncc(CCOc3ccc(/C=C(\C)C(=O)O)c4ccccc34)cc2C(=O)Nc2c(C)cc(Cl)nc21,WT,-,p24,<0.1 µM
O=C(c1ccccc1)c1cc(Cl)ccc1OCc1nc2ccccc2[nH]1,RF,-,p24,0.0821 µM
NC(=O)c1[nH]c2ccc(Cl)cc2c1S(=O)(=O)c1ccccc1,IIIB,-,cytopathic effect / MTT,0.003 µM
Cc1cc(-c2ccc[n+]([O-])c2)ccc1OCCc1cnc2c(c1)C(=O)N(C)c1cccnc1N2C1CC1,IIIB,-,p24,<0.01 µM
CCCc1ccc(-c2c(C(OC(C)C)C(=O)O)c(C)nc3ccc(Cl)cc23)cc1F,-,-,luciferase / reporter gene,<20 µM
CCN1c2ncc(CCOc3ccc(/C=C/C(=O)O)c4ccccc34)cc2C(=O)Nc2c(C)ccnc21,-,RT-K103N Y181C,p24,<0.1 µM
CC/C=C\C/C=C\C/C=C\C/C=C\C/C=C\C/C=C\CCC(=O)O[C@@H]1[C@@H](C)[C@@]2(O)[C@@H](C=C(CO)C[C@]3(O)C(=O)C(C)=C[C@@H]23)[C@@H]2C(C)(C)[C@]12OC(C)=O,IIIB,-,syncytia / visual reading,0.9431 µM
O=c1nc(Oc2c(F)c(F)c(F)c(F)c2F)ccn1[C@@H]1O[C@H](CO)[C@@H](O)[C@H]1O,IIIB Laboratory clade B,-,syncytia,1.6 µM
COc1ccc(S(=O)(=O)n2cc(/C(C)=N/NC(=O)c3ccccc3)c3ccc(C)cc32)cc1,IIIB,-,syncytia / visual reading,12.37 µg/mL
Cc1ccc(Sc2c(C(=O)NNCCO)[nH]c3ccc(Cl)cc23)cc1,IIIB,-,cytopathic effect / MTT,0.8 µM
CCN1c2ncc(CCOc3ccc(C(=O)O)c4c3CCN(C(=O)OC)C4)cc2C(=O)N(C)c2cccnc21,WT,-,p24,<0.1 µM
CC(C)c1c(Cc2cccc3ccccc23)nc(SCCc2ccccc2)[nH]c1=O,IIIB,-,syncytia,7.11 µM
CCCCC/C(=N\NC(=O)c1ccccc1)c1cn(S(=O)(=O)c2ccccc2)c2ccccc12,IIIB,-,syncytia / visual reading,38.23 µg/mL
CCN1c2ncc(CCOc3ccc(C(C)CC(=O)O)c4ccccc34)cc2C(=O)N(C)c2cccnc21,-,RT-K103N Y181C,p24,<0.1 µM
COc1ccc(C)cc1CS(=O)(=O)c1cccc[n+]1[O-],IIIB,-,syncytia,5.7 µg/mL
CC/C=C\C/C=C\C/C=C\C/C=C\C/C=C\CCCC(=O)O[C@@H]1[C@@H](C)[C@@]2(O)[C@@H](C=C(CO)C[C@]3(O)C(=O)C(C)=C[C@@H]23)[C@@H]2C(C)(C)[C@]12OC(=O)CCC,IIIB,-,p24 / ELISA,0.0074 µM
N#Cc1c(Nc2ccccc2)c(Cl)c2nc(N)nc(N)c2c1F,IIIB,-,syncytia,0.6 µg/mL
CCCCCCOC(=O)[C@H](C)NP(=O)(OC[C@H]1O[C@@H](n2cc(C)c(=O)[nH]c2=O)C[C@@H]1N=[N+]=[N-])Oc1ccccc1,RF,-,ELISA,0.1 µM
COc1ccc(C(=O)CSc2nc(Cc3ccccc3)c(C)c(=O)[nH]2)cc1,IIIB,-,syncytia,1.47 µM
COc1ccc([C@]2(OC)O[C@@H](c3cc(OC)c(OC)c(OC)c3)[C@@]3(C)O[C@@]23C)cc1OC,-,-,cytopathic effect,16 µg/mL
Cc1c(Cc2cccc3ccccc23)nc(SCCc2ccccc2)[nH]c1=O,IIIB,-,syncytia,5.4 µM
Cc1ccc(S(=O)(=O)c2c(C(N)=O)[nH]c3ccc(Cl)cc23)c(C)c1,IIIB,-,p24,<0.01 µM
C/C(=N\NC(=O)c1ccccc1)c1cn(S(=O)(=O)c2cccc([N+](=O)[O-])c2)c2cc(C)ccc12,IIIB,-,syncytia / visual reading,0.31 µg/mL
Cc1nc2ccc(Br)cc2c(-c2ccc(Cl)cc2)c1C(OCCC(C)C)C(=O)O,-,-,luciferase / reporter gene,<20 µM
Cc1ccc(S(=O)(=O)n2cc(/C=N/NC(=O)c3ccccc3)c3cc([N+](=O)[O-])ccc32)cc1,IIIB,-,syncytia / visual reading,20.82 µg/mL
C=C1CC[C@@H]2[C@](C)(CO)[C@H](O)CC[C@@]2(C)[C@@H]1CC(OC(=O)/C=C/c1cc2c(cc1[N+](=O)[O-])OCO2)C1CCOC1=O,-,-,cytopathic effect,1.158 µM
Cc1ccc(C)c(CS(=O)(=O)c2ccccn2)c1,IIIB,-,syncytia,4 µg/mL
Cc1c(Cc2ccccc2)nc(SCC(=O)c2ccccc2)[nH]c1=O,IIIB,-,syncytia,0.8 µM
N#Cc1c(Nc2ccccc2)c(F)c2nc(N)nc(N)c2c1F,IIIB,-,syncytia,0.4 µg/mL
CCc1c(Cc2cccc3ccccc23)nc(SCCc2ccccc2)[nH]c1=O,IIIB,-,syncytia,1.79 µM
CC(=O)O[C@@H]1[C@@H](O)[C@H](COC(=O)/C=C/c2ccc(O)cc2)OC(Oc2ccc(C(=O)/C=C/c3ccc(O)c(O)c3)c(O)c2O)[C@H]1O,MN,-,cytopathic effect / XTT,10 µM
Cc1cn([C@H]2C[C@H](N=[N+]=[N-])[C@@H](CO)O2)c(=O)[nH]c1=O,IIIB,-,p24 / ELISA,0.0054 µM
Cc1cccc(Sc2c(C(=O)NCCO)[nH]c3ccc(Cl)cc23)c1,IIIB,-,cytopathic effect / MTT,0.08 µM
Cc1cccc(S(=O)(=O)c2c(C(N)=O)[nH]c3ccc(Cl)cc23)c1,IIIB,-,p24,<0.005 µM
CC(C)OC(=O)OCOP(=O)(CO[C@H](C)Cn1cnc2c(N)ncnc21)OCOC(=O)OC(C)C,IIIB,-,p24 / ELISA,0.00618 µM
Cc1ccccc1CNC(=O)COc1ccc(Cl)cc1C(=O)c1ccccc1,RF,-,syncytia,1.27 µM
Cc1cc(C)cc(S(=O)(=O)c2c(C(N)=O)[nH]c3ccc(Cl)cc23)c1,IIIB,-,p24,<0.002 µM
COc1cc(/C=C/C(=O)O[C@@H]2[C@@H](C)[C@@]3(O)[C@@H](C=C(CO)C[C@]4(O)C(=O)C(C)=C[C@@H]34)[C@@H]3C(C)(C)[C@]23OC(C)=O)ccc1O,IIIB,-,p24 / ELISA,77.92 µM
CCN1c2ncc(CCOc3ccc(S(=O)(=O)Nc4ccc(C(=O)O)cc4)cc3C)cc2C(=O)N(C)c2cccnc21,-,RT-K103N Y181C,p24,>0.05 µM
CO[C@H](C(=O)O)c1c(C)nc2ccc(Br)cc2c1-c1ccc(Cl)cc1,-,-,luciferase / reporter gene,<20 µM
O=C(c1ccccc1)c1cc(Cl)ccc1OCC(=O)N1CCc2ccccc2C1,RF,-,syncytia,0.027 µM
CC(=O)OC[C@H]1O[C@@H](n2cc(C)c(-n3cncn3)nc2=O)C[C@@H]1N=[N+]=[N-],IIIB Laboratory clade B,-,syncytia,1.6 µM
C[C@H]1C[C@@]2(OC1=O)O[C@@]13O[C@]4(CC[C@@]5(C)C(=O)[C@H](C)[C@@H]2[C@@H]15)C[C@@]12OC(=O)C[C@@H]1O[C@](C)(CO)[C@H]2CCC4=C3O,IIIB,-,cytopathic effect,95.47 µg/mL
CC/C=C\C/C=C\C/C=C\C/C=C\C/C=C\CCCC(=O)O[C@@H]1[C@@H](C)[C@@]2(O)[C@@H](C=C(COC(C)=O)C[C@]3(O)C(=O)C(C)=C[C@@H]23)[C@@H]2C(C)(C)[C@]12OC(C)=O,IIIB,-,p24 / ELISA,0.0705 µM
O=C(O)c1cc2c([nH]c3ccccc32)c(-c2ccc(CO)o2)n1,IIIB,-,syncytia,2.37 µM
CCN(CC)CCOc1ccc(NC(=O)COc2ccccc2C(=O)c2ccc(OC)cc2)cc1,RF,-,p24,0.318 µM
CCN1c2ncc(CCOc3ccc(-c4ccc(C(=O)O)c[n+]4[O-])cc3C)cc2C(=O)N(C)c2cccnc21,IIIB,-,p24,0.01–0.05 µM
Cc1ccc(Sc2c(C(=O)NNCCO)[nH]c3ccc(Cl)cc23)c(C)c1,IIIB,-,cytopathic effect / MTT,0.7 µM

a–b is a range or a potency band. ECn is the concentration giving n% inhibition of infection, replication or growth. Neighbouring rows are from separate reports.